Laboratory results published in patent US20210252150A1 (VANDERBILT UNIVERSITY, published 2021).

Legend:
[1] = target: HA of A/Hong Kong/1/1968 (H3N2) (influenza A virus (H3N2), UniProt Q91MA7 17-530)
[2] = target: HA of A/Singapore/1/1957 (H2) (influenza A virus (H2), UniProt Q67333 16-525)

Row | Binder | binding result [1] | binding result [2]
1 | rFluA-20 heavy chain mutant D98A (antibody, V domains shown) VH: QVQLQESGPGLVKPSETLSLTCSVSGVSVTSDIYYWTWIRQPPGKGLEWIGYIFYNGDTNYNPSLKSRVTMSIDTSKNEFSLRLTSVTAADTAVYFCARGTEALGYCSSGSCPNHWGQGTLVTVSS VL: DIQMTQSPSSLSASIGDRVTITCRPSQNIRSFLNWFQHKPGKAPKLLIYAASNLQSGVPSRFSGSGSGTEFTLTIRSLQPEDFATYYCQQSYNTPPTFGQGTKVEIK | no binding (tested: 10 µg/mL) | no binding (tested: 10 µg/mL)
2 | rFluA-20 light chain mutant Q55A (antibody, V domains shown, recombinant IgG) VH: QVQLQESGPGLVKPSETLSLTCSVSGVSVTSDIYYWTWIRQPPGKGLEWIGYIFYNGDTNYNPSLKSRVTMSIDTSKNEFSLRLTSVTAADTAVYFCARGTEDLGYCSSGSCPNHWGQGTLVTVSS VL: DIQMTQSPSSLSASIGDRVTITCRPSQNIRSFLNWFQHKPGKAPKLLIYAASNLASGVPSRFSGSGSGTEFTLTIRSLQPEDFATYYCQQSYNTPPTFGQGTKVEIK |  | no binding (tested: 10 µg/mL)
3 | rFluA-20 light chain mutant Y49A (antibody, V domains shown, recombinant IgG) VH: QVQLQESGPGLVKPSETLSLTCSVSGVSVTSDIYYWTWIRQPPGKGLEWIGYIFYNGDTNYNPSLKSRVTMSIDTSKNEFSLRLTSVTAADTAVYFCARGTEDLGYCSSGSCPNHWGQGTLVTVSS VL: DIQMTQSPSSLSASIGDRVTITCRPSQNIRSFLNWFQHKPGKAPKLLIAAASNLQSGVPSRFSGSGSGTEFTLTIRSLQPEDFATYYCQQSYNTPPTFGQGTKVEIK |  | no binding (tested: 10 µg/mL)
